Results from patent US20160176953A1 (Regeneron, published 2016).

What was measured:
[1] = molecular target: Hemagglutinin of H1N1 A/California/07/2009 virus (Influenza A virus A/California/07/2009 …); test: cell-based or functional assay
[2] = molecular target: Hemagglutinin of H5N1 A/Vietnam/1203/2004 virus (Influenza A virus A/Vietnam/1203/2004 …); test: cell-based or functional assay

B1: H1H11829N2 (antibody, V domains shown)
VH: QVHLVQSGPEVKKPGSSVKVSCKASGVTFISHAISWVRQAPGQGLEWVGGIIAIFGTTNYAQKFQGRVTVTTDKSTNTVYMELSRLRSEDTAIYYCARGETYYEGNFDFWGQGTLVTVSS
VL: not shown
For B1, the “IC90 (nM), hemagglutination titer after microneutralization assay, Trial 1” value [1] was 41.7 nM and the “IC90 (nM), hemagglutination titer after microneutralization assay, Trial 1” value [2] was 83.3 nM.
